Measurements reported in PubChem BioAssay AID504761 (Drosophila RNAi Screening Center, 2011).

Assay: 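Fly genes whose silencing reduces dengue virus type 2 infection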 (primary screen)
Cells: D.Mel-2 cells from Drosophila
Reagent: long dsRNA against Drosophila genes
Conditions: infection with dengue virus type 2; dose and infection time not stated
Detection: 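Per well on two replicate plates, imaging gave the percent of cells positive for viral envelope protein, ranked by infection, and a nuclear count of cells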
Scale: infection score: higher = more virus-infected cells; cell count: higher = more cells in the well
Rule for the call: 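Very low infection ranking in both replicate wells (chance probability at most 0.065), then a retest showing infection dropped 1.5-fold or more at p below 0.05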
Meaning of the calls: active = confirmed: knock-down lowers infection; inactive = not picked or not confirmed
In all, the deposit lists about 22,000 reagents; this is a random part of those that have a named target and a result. In the full data, 116 (0.52%) are marked active. 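Calls depend on retest data that are not deposited; infection was ranked per plate without normalising between plates; the unit of the infection score is not given.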 Raw values are not corrected between plates. No sequences are given here. The record does not give: the amount of reagent, the time to read-out.

gene knocked down | DRSC id | infection score, replicate 1 | infection score, replicate 2 | cell count, replicate 1 | cell count, replicate 2 | Outcome
HLH3B | DRSC18669 | 8.93 | 5.86 | 5813 | 6710 | inactive
HLH3B | DRSC25447 | 4.3 | 4.06 | 6378 | 6331 | inactive
CG3288 | DRSC11745 | 6.06 | 7.34 | 6026 | 6338 | inactive
CG7791 | DRSC04891 | 8.82 | 27.4 | 6414 | 4670 | inactive
CG6362 | DRSC07413 | 15.1 | 19.3 | 6075 | 7078 | inactive
CG6362 | DRSC26135 | 5.74 | 1.52 | 5925 | 5774 | inactive
Josd | DRSC18323 | 3.89 | 2.96 | 6419 | 6853 | inactive
Cyp9f3 | DRSC16636 | 23.7 | 15 | 3277 | 5154 | inactive
Cyp9f3 | DRSC25711 | 3.49 | 0.83 | 6650 | 6536 | inactive
Rh5 | DRSC03412 | 15.6 | 7.8 | 6105 | 6231 | inactive
Rh5 | DRSC25429 | 5.79 | 22.4 | 5613 | 5958 | inactive
CecB | DRSC16605 | – | 4.02 | 286 | 7214 | inactive
CG13215 | DRSC06337 | 4.29 | 3.94 | 6593 | 6877 | inactive
CG15597 | DRSC12283 | 2.74 | 11.5 | 6237 | 5452 | inactive
CG15597 | DRSC24202 | 3.6 | 14.7 | 6465 | 5881 | inactive
cmb | DRSC09790 | 0.71 | 1.47 | 6583 | 6277 | inactive
cmb | DRSC25444 | 2.14 | 4.26 | 6160 | 6172 | inactive
CG16995 | DRSC00480 | 3.81 | 3.45 | 6324 | 6323 | inactive
Hacl | DRSC06061 | 3.42 | 6.83 | 1082 | 1714 | inactive
Nsf2 | DRSC22104 | 1.61 | 2.3 | 6843 | 6687 | inactive
Nsf2 | DRSC27428 | 6.4 | 11.4 | 6485 | 5900 | inactive
msl-3 | DRSC11371 | 1.53 | 0.87 | 5962 | 5944 | inactive
Shab | DRSC08013 | 2.62 | 2.71 | 6269 | 5532 | inactive
Shab | DRSC08643 | 3.26 | 1.02 | 6014 | 6491 | inactive
Shab | DRSC08699 | 9.07 | 8.53 | 6249 | 3894 | inactive
Shab | DRSC28359 | 11.8 | 9.03 | 5172 | 5547 | inactive
